# Results reported in patent US6525021B1 (priority 1998, dated 2003).
# Chains of the proteins cited; added tags and fusions are not shown. Lines headed by an entry give the natural chain unless they say otherwise; changes in a name come on top. Residues count along the entry.
# UniProt Q63384: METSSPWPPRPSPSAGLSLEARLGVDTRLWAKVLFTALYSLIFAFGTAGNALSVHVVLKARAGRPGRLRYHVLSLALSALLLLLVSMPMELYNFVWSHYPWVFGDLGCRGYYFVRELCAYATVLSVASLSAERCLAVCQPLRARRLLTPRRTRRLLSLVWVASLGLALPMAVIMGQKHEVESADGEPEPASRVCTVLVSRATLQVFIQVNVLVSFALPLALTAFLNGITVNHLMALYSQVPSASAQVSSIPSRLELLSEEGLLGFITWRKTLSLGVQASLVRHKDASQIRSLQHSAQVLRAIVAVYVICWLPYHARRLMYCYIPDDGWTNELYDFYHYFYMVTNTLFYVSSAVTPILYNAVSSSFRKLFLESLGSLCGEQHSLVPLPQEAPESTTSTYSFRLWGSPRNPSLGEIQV
# UniProt P20789, whole entry, looked up: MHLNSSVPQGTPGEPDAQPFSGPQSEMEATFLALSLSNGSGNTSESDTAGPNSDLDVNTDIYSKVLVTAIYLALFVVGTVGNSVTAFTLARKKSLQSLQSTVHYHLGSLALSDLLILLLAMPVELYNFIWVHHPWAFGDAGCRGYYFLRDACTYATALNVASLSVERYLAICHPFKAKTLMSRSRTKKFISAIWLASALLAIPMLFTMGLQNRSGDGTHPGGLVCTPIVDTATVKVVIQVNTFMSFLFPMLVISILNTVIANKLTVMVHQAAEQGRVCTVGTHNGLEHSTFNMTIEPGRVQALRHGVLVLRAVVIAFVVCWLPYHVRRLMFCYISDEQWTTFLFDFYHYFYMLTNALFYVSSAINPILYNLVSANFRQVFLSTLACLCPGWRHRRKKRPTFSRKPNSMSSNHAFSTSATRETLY
# UniProt Q6PHU5, 74-825 limits assumed: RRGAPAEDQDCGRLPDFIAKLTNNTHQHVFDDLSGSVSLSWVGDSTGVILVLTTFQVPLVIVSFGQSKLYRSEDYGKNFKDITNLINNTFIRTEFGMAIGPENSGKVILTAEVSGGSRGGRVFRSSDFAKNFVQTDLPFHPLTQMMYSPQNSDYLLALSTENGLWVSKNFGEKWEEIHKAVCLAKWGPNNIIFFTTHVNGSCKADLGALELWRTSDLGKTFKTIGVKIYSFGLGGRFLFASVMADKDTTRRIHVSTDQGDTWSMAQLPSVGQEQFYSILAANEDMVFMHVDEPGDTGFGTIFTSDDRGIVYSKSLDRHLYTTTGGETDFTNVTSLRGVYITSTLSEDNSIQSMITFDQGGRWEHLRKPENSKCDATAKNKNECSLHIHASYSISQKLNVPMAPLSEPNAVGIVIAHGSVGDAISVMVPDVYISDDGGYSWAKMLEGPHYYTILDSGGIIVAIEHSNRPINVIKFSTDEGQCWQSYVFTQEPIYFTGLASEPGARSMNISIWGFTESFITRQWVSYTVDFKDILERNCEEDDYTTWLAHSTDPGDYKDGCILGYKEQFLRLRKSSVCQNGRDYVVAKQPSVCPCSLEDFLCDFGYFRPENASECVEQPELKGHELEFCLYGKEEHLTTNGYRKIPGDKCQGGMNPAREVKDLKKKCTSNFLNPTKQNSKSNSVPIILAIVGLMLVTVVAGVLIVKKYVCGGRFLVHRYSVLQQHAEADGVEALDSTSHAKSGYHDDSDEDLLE
# Tests used:
# [1] = chronic inflammatory allodynia (CFA model), von Frey; conditions: for ED50, CFA-Induced Allodynia Test: estimated
# [2] = acute pain (hotplate), icv
# [3] = toxicity testing: rectal temperature, i.t. (hypothermia); conditions: for time of maximal hypothermic effects post i.t. injection / doses causing hypothermia, as multiple of ED50 / TD50 for hypothermic effect: i.t.; for doses causing hypothermia, as multiple of ED50: FIG. 16; for TD50 for hypothermic effect: estimated
# [4] = audiogenic seizures in Frings mice, i.c.v.; conditions: for X more potent than NT / ED50, audiogenic seizures / P.I. (Protective index = TD50/ED50) / block of audiogenic seizures: i.c.v.; for X more potent than NT / ED50, audiogenic seizures / P.I. (Protective index = TD50/ED50): Frings AGS mice; for ED50, audiogenic seizures: 60 min; for block of audiogenic seizures: Frings mice
# [5] = target: rat neurotensin type 2 receptor (rNTR2) (Rattus norvegicus, UniProt Q63384); assay: competition binding with [125I-Tyr3]neurotensin1-13, CHO cell membranes; conditions: read-out: IC50 rNTR2; 0.4 nM [125I-Tyr3]neurotensin1-13, CHO membranes
# [6] = target: rat neurotensin type 1 receptor (rNTR1) (Rattus norvegicus, UniProt P20789); assay: as above; conditions: read-out: IC50 rNTR1; 0.4 nM [125I-Tyr3]neurotensin1-13, CHO membranes
# rNTR1 = rNTR1 (Rattus norvegicus, UniProt P20789); assay: phosphoinositides determination (IP accumulation), CHO cells expressing rNTR1; type: cell-based
# [7] = neuropathic pain (partial sciatic nerve ligation), von Frey mechanical allodynia
# [8] = persistent pain (formalin test), intrathecal; conditions: for ED50, Formalin Test (phase 2): estimated
# [9] = accelerating rotarod before hotplate, icv; conditions: 10 fmol-10 nmol
# [10] = acute pain (tail-flick), intrathecal; conditions: i.t.; for tail-flick (withdrawal) latency: 54 C water bath
# [11] = target: solubilized mouse neurotensin type 3 receptor (mNTR3) (Mus musculus, UniProt Q6PHU5); assay: binding on CHAPS-solubilized mouse brain extracts; conditions: read-out: IC50 mNTR3, 0.2 nM radioligand
# [12] = toxicity testing: accelerating rotorod, i.t. (motor impairment)
# [13] = D-amphetamine-stimulated locomotor activity
# [14] = rotorod test of motor impairment in Frings mice, i.c.v.; conditions: Frings AGS mice, 15 min, listed as CGX-1160
# [15] = proteolytic degradation (preliminary data); conditions: compared with non-glycosylated analog
# [16] = biological activity of contulakin-G analogs by icv injection in mice; type: in vivo
# [17] = animal models of acute and chronic pain
molecule,measurement,setting,value
CC[C@H](C)[C@H](NC(=O)[C@H](Cc1ccc(O)cc1)NC(=O)[C@@H]1CCCN1C(=O)[C@H](CCCCN)NC(=O)[C@H](CCCCN)NC(=O)[C@@H](NC(=O)[C@H](C)NC(=O)[C@H](CC(N)=O)NC(=O)[C@H](CO)NC(=O)CNC(=O)CNC(=O)[C@H](CCC(=O)O)NC(=O)[C@H](CCC(=O)O)NC(=O)[C@H](CO)NC(=O)[C@@H]1CCC(=O)N1)[C@@H](C)O)C(=O)N[C@@H](CC(C)C)C(=O)O [Thr10-contulakin-G],contralateral side relative to pre-drug baseline,[1]; 10 pmol i.t.,also elevated
same,"PI (TD50/ED50), CFA-Induced Allodynia Test",[1]; i.t.,1-5
same,fold less potent than CGX-1160 in CFA model,[1]; i.t.,approximately 100 fold
same,"minimally effective dose, CFA-induced allodynia",[1]; i.t.,10 pmol
same,reversal of CFA-induced mechanical allodynia,[1]; i.t.,completely reversed
same,"ED50, CFA-Induced Allodynia Test",[1]; i.t.,<10 pmol
same,effective dose range in hot plate model,[2],low picomole to high femtomole range
same,latency to first response on hotplate,[2]; 10 fmol-10 nmol,dose-dependently increased
same,latency to the first hindpaw lick on hotplate,[2]; 10 fmol-10 nmol,dose-dependently increased
same,duration of drop in body temperature,[3]; 100 pmol i.t.,2 to 3 h
same,time of maximal hypothermic effects post i.t. injection,[3],30 min
same,"doses causing hypothermia, as multiple of ED50",[3],10 fold
same,TD50 for hypothermic effect,[3],100 pmol
same,X more potent than NT,[4],≈37
same,"ED50, audiogenic seizures",[4],27.0 pmol
same,P.I. (Protective index = TD50/ED50),[4]; listed as CGX-1063,14 and ≈14
same,block of audiogenic seizures,[4],potently and dose-dependently blocked
same,IC50,[5],170 nM
same,IC50,[6],79 nM
same,mode of action on CHO cells expressing the rNTR1,rNTR1,acted as agonists
same,EC50,"rNTR1; read-out: agonist potency, CHO cells expressing rNTR1",0.6 nM
same,mechanical threshold on the contralateral side,[7]; 100 pmol intrathecal,not significantly altered
same,withdrawal threshold in sham-operated animals,"[7]; intrathecal, both hindpaws",uniformly increased in both hindpaws
same,first phase response time of the formalin test,"[8]; 10 vs 100 pmol, it",the lower dose (10 pmol) was more effective
same,ED50 phase 1 of the formalin test,[8]; i.t.,did not reach the 50% antinociception threshold
same,"PI (TD50/ED50), Formalin Test (phase 2)",[8]; i.t.,1-2
same,"ED50, Formalin Test (phase 2)",[8]; i.t.,10 to 20 pmol
same,latency to first fall on the rotarod,[9],dose-dependently decreased
same,tail-flick (withdrawal) latency,[10],"dose-dependent, though more variable increase"
same,IC50,[11],71 nM
same,motor toxicity at the lowest dose tested,[12]; 1 pmol i.t.,no motor toxicity
same,duration of motor toxicity,"[12]; 10 pmol i.t., resolved by 60 minutes",30 min
CC[C@H](C)[C@H](NC(=O)[C@H](Cc1ccc(O)cc1)NC(=O)[C@@H]1CCCN1C(=O)[C@H](CCCCN)NC(=O)[C@H](CCCCN)NC(=O)[C@@H](NC(=O)[C@H](C)NC(=O)[C@H](CC(N)=O)NC(=O)[C@H](CO)NC(=O)CNC(=O)CNC(=O)[C@H](CCC(=O)O)NC(=O)[C@H](CCC(=O)O)NC(=O)[C@H](CO)NC(=O)[C@@H]1CCC(=O)N1)[C@@H](C)O[C@H]1O[C@H](CO)[C@H](O)[C@H](O[C@@H]2O[C@H](CO)[C@H](O)[C@H](O)[C@H]2O)[C@H]1NC(C)=O)C(=O)N[C@@H](CC(C)C)C(=O)O [contulakin-G],contralateral sensitivity to mechanical pressure,[1]; 100 fmol i.t.,unaltered
same,"PI (TD50/ED50), CFA-Induced Allodynia Test",[1]; i.t.,>100
same,dose that completely reversed CFA-induced mechanical allodynia,[1]; i.t.,100 fmol
same,reversal of CFA-induced mechanical allodynia,[1]; i.t.,extremely potent and dose-dependent reversal
same,"ED50, CFA-Induced Allodynia Test",[1]; i.t.,<0.1 pmol
same,reduction in basal locomotor activity,[13]; 100 pmol i.c.v.,did not reach statistical significance
same,amphetamine-stimulated increases in distance traveled and time spent ambulating,"[13]; 100 pmol i.c.v. pretreatment, D-amphetamine 3 mg/kg i.p.",significantly reduced
same,time by which hypothermic effect resolved,[3]; 100 pmol i.t.,≤ 60 min
same,hypothermic effect at highest dose,[3]; 500 pmol i.t.,had not resolved by six hours post-injection
same,time of maximal hypothermic effects post i.t. injection,[3],30 min
same,"doses causing hypothermia, as multiple of ED50",[3],100-500 fold
same,TD50 for hypothermic effect,[3],100 pmol
same,activity against audiogenic seizures at 30 minutes,"[4]; 100 pmol i.c.v., 30 minutes",no activity
same,protection against audiogenic seizures,"[4]; 100 pmol i.c.v., 60 minutes",100%
same,protection against audiogenic seizures,"[4]; 100 pmol i.c.v., 4 hours",50%
same,P.I. (Protective index = TD50/ED50),[4],>28
same,X more potent than NT,[4],≈140
same,"ED50, audiogenic seizures",[4],7.1 pmol
same,block of audiogenic seizures,[4],potently and dose-dependently blocked
same,typical analgesic potency relative to CGX-1063,[8]; [17],10 fold
same,typical analgesic potency relative to NT,[8]; [17],1000 times
same,ED50 phase 1 of the formalin test,[8]; i.t.,30 to 40 pmol
same,"PI (TD50/ED50), Formalin Test (phase 2)",[8]; i.t.,10-20
same,"potency relative to CGX-1063, formalin phase 2",[8]; i.t.,10 times
same,"potency relative to NT, formalin phase 2",[8]; i.t.,600-700 times
same,"ED50, Formalin Test (phase 2)",[8]; i.t.,1 pmol
same,"TD50, motor toxicity",[14],> 200 pmol
same,tail-flick (withdrawal) latency,[10],dose-dependently increased
same,time post injection at which latency returned to baseline,[10]; highest dose tested (100 pmol),24 h
same,withdrawal times at 5 hour post injection,[10]; highest dose tested (100 pmol),elevated
same,time to peak effect in tail-flick,[10]; earliest time tested,≤ 30 min
same,proteolytic degradation,[15],inhibited by the presence of the glycan moiety
Ser10-contulakin-G containing the native glycosylation on Ser10,activity compared with native contulakin-G,"[16]; icv, mice",slightly more active
same,time mice were drowsy,"[16]; three week old mice, 1 nmole and 300 pmole icv",100 min
